Measured values from several laboratories, pooled; numbers as filed in NIAID ChemDB.

Common to all: toxicity to cultured cells; cells: MT-4; endpoint: CC50

An empty or dashed field is not shown. CCn is the concentration with n% toxicity to the cells. Conditions beyond the fields shown may differ between rows.

SMILES | method | result
CCOC(=O)c1cc2c3cccc(OC)c3c3ccc(N)cc3n2c1C | - | >200 µM
Cc1cccc(Nc2ccccc2C(=O)Nc2ccc(C(=O)/C=C/c3ccccc3)cc2)c1C | MTT / absorbance | >125 µM
CC1=C2C[C@]3(O)[C@@H](C)CCC[C@@]3(C)C[C@@H]2OC1=O | MTT | 96.77 µg/mL
CCCC(C(=O)O)c1c(C)nc2sc3c(c2c1C(C)(C)C)CCCC3 | MTT | 131 µM
Cc1cc(C(=O)Nc2ccc(S(=O)(=O)O)c3cc(S(=O)(=O)O)cc(S(=O)(=O)O)c23)ccc1NC(=O)Nc1ccc(C(=O)Nc2ccc(S(=O)(=O)O)c3cc(S(=O)(=O)O)cc(S(=O)(=O)O)c23)cc1C | - | >500 µg/mL
CC1=C[C@@H]2[C@@H]3C(=O)N(NC(=O)NC4CCCCC4)C(=O)[C@@H]3[C@H]1C[C@@H]2C(C)C | MTT | 63 µM
CC(Cc1ccccc1)NC(=S)Nc1nccs1 | - | 108 µM
N#Cc1cc(Cl)cc(Oc2c(C(F)(F)F)ccn(CC(=O)Nc3ccc(F)cc3)c2=O)c1 | MTT | 112 µM
Fc1ccccc1Cn1c(-c2ccccc2F)nc2ccccc21 | - | 23.33 µM
Fc1cccc(F)c1CCNC(=S)Nc1nccs1 | - | 33 µM
CCOC(=O)c1nnsc1Nc1ccccc1Nc1snnc1C(=O)OCC | MTT | >297.5 µM
CCOC(=O)c1cc2c3cc(OC)ccc3c3c(N)cccc3n2c1C | - | >200 µM
FC(F)(F)c1cccc(-n2c(Cc3ccccn3)n[nH]c2=S)c1 | MTT | >100 µM
COc1ccc(OCc2nc3ccccc3n3cccc23)cc1 | MTT | 16 µM
COc1ccccc1CCNC(=S)NC(=O)c1csc(-c2ccccc2)n1 | MTT | 11.72 µM
O=c1[nH]cnc2c1ncn2[C@@H]1O[C@H](CO)[C@H]1COS(=O)(=O)O | - | >100 µg/mL
S=C(Nc1nc2ccccc2s1)NC1CC2CCC1C2 | MTT | 46 µM
Cc1cccc(Nc2ccccc2C(=O)Nc2ccc(C(=O)/C=C/c3ccc(Cl)cc3)cc2)c1C | MTT / absorbance | 2.17 µM
Cc1cnc(Nc2ccc(C#N)cc2)nc1SC1CCCCC1 | - | 33.38 µM
CCOC(=O)c1[nH]c2ccccc2c1Cc1ccccc1Cl | MTT | >80 µM
Nc1ncnc2c1ncn2[C@H]1C[C@@H](CO)O1 | - | >10 µg/mL
O=C(Nc1ccc(-c2ccc(C(=O)Nc3ccc(S(=O)(=O)O)c4cc(S(=O)(=O)O)cc(S(=O)(=O)O)c34)cc2)cc1)Nc1ccc(-c2ccc(C(=O)Nc3ccc(S(=O)(=O)O)c4cc(S(=O)(=O)O)cc(S(=O)(=O)O)c34)cc2)cc1 | - | >50 µg/mL
Cc1cn([C@@H]2OC3COC4(O)CS(=O)(=O)OC34C2O[Si](C)(C)C(C)(C)C)c(=O)[nH]c1=O | - | >100 µM
Cc1c(C(C)c2ccccc2)n(COCc2ccccc2)c(=O)[nH]c1=O | MTT | >357 µM
CC=CCn1c(-c2ccccc2F)nc2c(OC)cccc21 | - | 13.17 µg/mL
[N-]=[N+]=NC[C@H]1[C@H](n2cnc3c(N)ncnc32)O[C@@H]1CO | - | >100 µg/mL
CCOC(=O)c1cc(-c2cccc(N=[N+]=[N-])c2)n(-c2ccccc2)c1C | - | >300 µM
S=C(NCc1ccccc1)Nc1nccs1 | - | 120 µM
N#Cc1cc(Cl)cc(Oc2c(C(F)(F)F)ccn(CC(=O)Nc3ccn[nH]3)c2=O)c1 | MTT | ≥41.9 µM
CCCn1c(Sc2ccncc2)c([N+](=O)[O-])c(=O)[nH]c1=O | - | 76.63 µg/mL
COP(=O)(c1cc(C)cc(CCC#N)c1)c1c(C(N)=O)[nH]c2ccc(Cl)c(F)c12 | MTS | 18.6 µM
O=C(Cc1ccccn1)NNC(=S)Nc1cccc(Cl)c1 | MTT | >100 µM
N#Cc1ccc(N2C(=O)CS/C2=N\c2nc3ccccc3s2)cc1 | MTT | 100 µM
CCOC(=O)c1cc(-c2cccc(N=[N+]=[N-])c2)n(-c2cccc(OC)c2)c1C | - | 47 µM
Cc1cccc(Nc2ccccc2C(=O)Nc2ccc(C(=O)/C=C/c3ccc(N(C)C)cc3)cc2)c1C | MTT / absorbance | 2.06 µM
O=C(CCN1C(=O)/C(=C/c2cccc(Br)c2)SC1=S)Nc1ccccc1O | - | 125 µM
Fc1ccc(NC(=S)Nc2nc3ccccc3s2)cc1Cl | MTT | 14 µM
Clc1cccc(Nc2nnc(Cc3ccccn3)s2)c1 | MTT | >100 µM
Brc1cccc(-c2nc(-c3nnc(C45CCC6CC(CC4C6)C5)o3)cs2)c1 | MTT | >125 µM
C=C1[C@H](n2cnc3c(N)ncnc32)O[C@@H]1CO | - | >100 µg/mL
CS(=O)(=O)c1ccc(NC(=O)Cn2ccc(C(F)(F)F)c(Oc3cc(Cl)cc(C#N)c3)c2=O)cc1 | MTT | 112 µM
N#Cc1ccc(Nc2nccc(OC3CCCC3)n2)cc1 | - | >340 µM
S=c1[nH]nc(Cc2ccccn2)n1-c1cccc(Br)c1 | MTT | >100 µM
C#CCNC(=O)C#Cc1cnc(Nc2ccc(C#N)cc2)nc1Oc1c(C)cc(C#N)cc1C | MTT | 7.02 µM
COc1cc(Nc2nc3ccccc3n3cccc23)cc(OC)c1OC | MTT | >100 µM
COc1cccc2c1c1ccc(N)cc1n1c(C)c(C(C)=O)cc21 | - | 18 µM
Cc1ccc(C(=O)Nc2ccc(S(=O)(=O)O)c3cc(S(=O)(=O)O)cc(S(=O)(=O)O)c23)cc1NC(=O)c1cccc(NC(=O)c2ccc(C(=O)Nc3cccc(C(=O)Nc4cc(C(=O)Nc5ccc(S(=O)(=O)O)c6cc(S(=O)(=O)O)cc(S(=O)(=O)O)c56)ccc4C)c3)cc2)c1 | - | >50 µg/mL
CCn1c(-c2ccccc2F)nc2c(OC)cccc21 | - | >19.2 µg/mL
Cc1cc(=O)c2c(O)c3c(O)cc(O)c4c5c(O)cc(O)c6c(O)c7c(=O)cc(C)c8c1c2c(c34)c(c65)c78 | - | >1 µM
Cc1cn([C@H]2C[C@H](N=[N+]=[N-])[C@@H](CO)O2)c(=O)[nH]c1=O | MTT / absorbance | >25 µM
Fc1ccccc1-c1nc(-c2nnc(C34CCC5CC(CC3C5)C4)o2)cs1 | MTT | ≥97.6 µM
Cc1cc(C#N)cc(C)c1Oc1nc(Nc2ccc(C#N)cc2)ncc1C#CC(=O)NC1CC1 | MTT | 5.3 µM
N#Cc1ccc(Nc2nccc(OC3CCCCC3)n2)cc1 | - | 322 µM
CCOC(=O)C#Cc1cnc(Nc2ccc(C#N)cc2)nc1Oc1c(C)cc(C#N)cc1C | MTT | 34.5 µM
Clc1cccc(-c2nc(-c3nnc(C45CCC6CC(CC4C6)C5)o3)cs2)c1 | MTT | >125 µM
S=C(Nc1ccc(Cl)c(Cl)c1)Nc1nc2ccccc2s1 | MTT | 15 µM
Cn1c(Sc2cc[n+]([O-])cc2)c([N+](=O)[O-])c(=O)n(C)c1=O | - | 0.275 µg/mL
COc1ccc(NC(=S)NN2C(=O)[C@@H]3[C@H](C2=O)[C@]2(C)C=C[C@@]3(C(C)C)CC2)cc1 | MTT | 76 µM
Cc1cc(C(C)(C)C)ccc1N1C(=O)CS/C1=N\c1nc2ccccc2s1 | MTT | 86 µM
O=C(Nc1cc(C(=O)Nc2ccc(S(=O)(=O)O)c3cc(S(=O)(=O)O)cc(S(=O)(=O)O)c23)ccc1F)Nc1cc(C(=O)Nc2ccc(S(=O)(=O)O)c3cc(S(=O)(=O)O)cc(S(=O)(=O)O)c23)ccc1F | - | >500 µg/mL
Cc1ccc(Cl)c(-n2c(Cc3ccccn3)n[nH]c2=S)c1 | MTT | >100 µM
Brc1ccc(-c2nc(-c3nnc(C45CCC6CC(CC4C6)C5)o3)cs2)cc1 | MTT | >110 µM
Cc1ccc(C(C)c2c(C(C)C)c(=O)[nH]c(=O)n2COCc2ccccc2)cc1 | MTT | 33.43 µM
O=C1Nc2ccc(F)cc2[C@@]12C[C@@H]2c1ccccc1 | MTT | 10.85 µg/mL
COc1ccc([C@H]2C[C@H]2CSc2nc([C@@H](C)c3c(F)cccc3F)c(C)c(=O)[nH]2)cc1 | MTT | 47.17 µM
CC(C)[C@]12C=C[C@](C)(CC1)[C@H]1C(=O)N(NC(=O)NC3CCCCC3)C(=O)[C@H]12 | MTT | 72 µM
Cc1ccccc1C(C)c1c(C)c(=O)[nH]c(=O)n1COCc1ccccc1 | MTT | >343 µM
COc1ccc([C@@H]2C[C@@H]2CSc2nc([C@@H](C)c3c(F)cccc3F)c(C)c(=O)[nH]2)cc1 | MTT | >56.25 µM
Cc1cc(C)cc(S(=O)(=O)c2c(C(N)=O)[nH]c3c(Cl)cc(Cl)cc23)c1 | MTT | >200 µM
CCOC(=O)CCC(NC(=O)c1ccc(Nc2nc3cc(C(F)(F)F)ccc3n3cccc23)cc1)C(=O)OCC | MTT | 39 µM
CCOC(=O)c1cc(-c2cccc(OC)c2)n(-c2cccc(N=[N+]=[N-])c2)c1C | - | 6.4 µM
CC1=C[C@@H]2[C@@H]3C(=O)N(NC(=O)Nc4ccccc4)C(=O)[C@@H]3[C@H]1C[C@@H]2C(C)C | MTT | >100 µM
N#Cc1cc(Cl)cc(Oc2c(C(F)(F)F)ccn(CC(=O)Nc3ccncc3)c2=O)c1 | MTT | 133 µM
C=C(C)Cn1c(-c2ccccc2F)nc2c(OC)cccc21 | - | 11.93 µg/mL
FC(F)(F)c1ccc2c(c1)nc(CCl)c1cccn12 | MTT | 18 µM
Cc1cnc(Nc2ccc(C#N)cc2)nc1OC1CCCCC1 | - | 31.23 µM
Cc1cc(C)cc(S(=O)(=O)c2c(C(=O)NCC(=O)NN)[nH]c3ccc(Cl)cc23)c1 | MTT | ≥200 µM
O=C(Cc1ccccn1)NNC(=S)Nc1ccc(F)c(Cl)c1 | MTT | >100 µM
S=C(NCCc1ccccc1Cl)Nc1nccs1 | - | 100 µM
COc1cc2nc(-c3c(F)cccc3Cl)n(Cc3c(F)cccc3Cl)c2cc1Cc1c(F)cccc1Cl | - | 18.75 µM
CC(C)[C@]12C=C[C@](C)(CC1)[C@H]1C(=O)N(NC(=O)Nc3ccccc3)C(=O)[C@H]12 | MTT | 100 µM
Cc1ccc(Cl)c(NC(=S)NNC(=O)Cc2ccccn2)c1 | MTT | >100 µM
CC(C)[C@]12C=C[C@](C)(CC1)[C@H]1C(=O)N(N)C(=O)[C@H]12 | MTT | 100 µM
Nc1nc(Sc2ccccc2)c([N+](=O)[O-])c(=O)[nH]1 | - | 88.07 µg/mL
CC(C)OC(=O)OCn1nc(Cn2ccc(C(F)(F)F)c(Oc3cc(Cl)cc(C#N)c3)c2=O)n(C)c1=O | MTT | >231 µM
O=S(=O)(c1cccc2cnccc12)N1CCNCC1 | - | 14.8 µg/mL
N#Cc1cc(Cl)cc(Oc2c(C(F)(F)F)ccn(CC(=O)Nc3ncn[nH]3)c2=O)c1 | MTT | >285 µM
NS(=O)(=O)c1ccc(NC(=O)c2ccccc2SSc2ccccc2C(=O)Nc2ccc(S(N)(=O)=O)cc2)cc1 | - | >120 µM
Cc1ccc([C@H]2C[C@]23C(=O)N(C)c2ccccc23)cc1 | MTT | 0.39 µg/mL
Nc1nc2c(ncn2[C@H]2C=C[C@@H](CO)O2)c(=O)[nH]1 | - | 11 µM
COc1ccc(Nc2nc3ccccc3n3cccc23)cc1 | MTT | >100 µM
COc1ccc(NC(=S)Nc2nc3ccccc3s2)cc1 | MTT | 68 µM
CCCn1c(Sc2cc[n+]([O-])cc2)c([N+](=O)[O-])c(=O)[nH]c1=O | - | 0.313 µg/mL
COc1ccc2c(c1)c1cc(C(C)=O)c(C)n1c1cccc(N)c21 | - | 40 µM
CCCn1c(Sc2ccccc2)c(N)c(=O)[nH]c1=O | - | ≥44.3 µg/mL
C[C@H](COc1cc(N)nc(N)n1)OCP(=O)(O)O | - | ≥100 µg/mL
CCC(O)(c1ccccc1OC)c1c(C)c(=O)[nH]c(=O)n1COCc1ccccc1 | MTT | 90.34 µM
Cc1cc2nc(-c3c(F)cccc3F)n(Cc3c(F)cccc3F)c2cc1C | - | 6.15 µM
Cc1cc(C#N)cc(C)c1Oc1nc(Nc2ccc(C#N)cc2)ncc1C#CC(=O)NCCOCCO | MTT | 9.38 µM

Repeating the first 9 entries:

CCOC(=O)c1cc2c3cccc(OC)c3c3ccc(N)cc3n2c1C ; result: >200 µM
Cc1cccc(Nc2ccccc2C(=O)Nc2ccc(C(=O)/C=C/c3ccccc3)cc2)c1C ; method: MTT / absorbance ; result: >125 µM
CC1=C2C[C@]3(O)[C@@H](C)CCC[C@@]3(C)C[C@@H]2OC1=O ; method: MTT ; result: 96.77 µg/mL
CCCC(C(=O)O)c1c(C)nc2sc3c(c2c1C(C)(C)C)CCCC3 ; method: MTT ; result: 131 µM
Cc1cc(C(=O)Nc2ccc(S(=O)(=O)O)c3cc(S(=O)(=O)O)cc(S(=O)(=O)O)c23)ccc1NC(=O)Nc1ccc(C(=O)Nc2ccc(S(=O)(=O)O)c3cc(S(=O)(=O)O)cc(S(=O)(=O)O)c23)cc1C ; result: >500 µg/mL
CC1=C[C@@H]2[C@@H]3C(=O)N(NC(=O)NC4CCCCC4)C(=O)[C@@H]3[C@H]1C[C@@H]2C(C)C ; method: MTT ; result: 63 µM
CC(Cc1ccccc1)NC(=S)Nc1nccs1 ; result: 108 µM
N#Cc1cc(Cl)cc(Oc2c(C(F)(F)F)ccn(CC(=O)Nc3ccc(F)cc3)c2=O)c1 ; method: MTT ; result: 112 µM
Fc1ccccc1Cn1c(-c2ccccc2F)nc2ccccc21 ; result: 23.33 µM